Measured values from several laboratories, pooled; numbers as filed in NIAID ChemDB.

Shared fields: whole-cell or culture tests; species: HIV-1; cell line: C8166; endpoint: EC50

Blank or dashed fields: not listed here. ECn: concentration that inhibits the pathogen or its effect by n%. Neighbouring rows are from separate reports.

{"smiles": "O=c1[nH]cnc2c1ncn2[C@H]1CC[C@@H](CO)O1", "strain": "HXB2", "method": "p24", "value": "1.8 µM"}
{"smiles": "COC(=O)C(C)NP(=O)(OC[C@H]1O[C@@H](n2cc(C)c(=O)[nH]c2=O)C[C@@H]1N=[N+]=[N-])Oc1ccc([N+](=O)[O-])cc1", "strain": "IIIB", "method": "MTT / p24", "value": "0.03 µM"}
{"smiles": "Cc1cn([C@H]2C=C[C@@H](CO)O2)c(=O)[nH]c1=O", "strain": "RF", "method": "cytopathic effect", "value": "1 µg/mL"}
{"smiles": "CCOP(=O)(N[C@@H](C)C(=O)OC)OC[C@H]1O[C@@H](n2cc(C)c(=O)[nH]c2=O)C[C@@H]1N=[N+]=[N-]", "strain": "IIIB", "method": "MTT / p24", "value": "4 µM"}
{"smiles": "CC(=O)Oc1ccc(COP(=O)(OC[C@@H]2C[C@@H](N=[N+]=[N-])[C@H](n3cc(C)c(=O)[nH]c3=O)O2)OC[C@H]2O[C@@H](n3cc(C)c(=O)[nH]c3=O)C[C@@H]2N=[N+]=[N-])cc1", "strain": "IIIB", "method": "cytopathic effect / MTT", "value": "0.003 µM"}
{"smiles": "O=C(CC1(O)C(=O)Nc2ccc(Cl)cc21)c1cccc(Br)c1", "strain": "IIIB", "method": "cytopathic effect / syncytia", "value": "25.87 µM"}
{"smiles": "C[C@@H]1O[C@@H](Oc2c(-c3ccc(O)c(O)c3)oc3cc(O)cc(O)c3c2=O)[C@H](O)[C@H](O)[C@H]1O", "strain": "IIIB", "method": "ELISA", "value": "50 µg/mL"}
{"smiles": "Cc1nc2ccccc2n(CC(=O)NNC(=O)c2ccc(Cl)cc2)c1=O", "strain": "IIIB", "method": "syncytia / visual reading", "value": ">540 µM"}
{"smiles": "Cc1cn([C@@H]2C[C@@H](N=[N+]=[N-])[C@H](COP(=O)(O)OC[C@H]3O[C@@H](n4cc(C)c(=O)[nH]c4=O)C[C@@H]3N=[N+]=[N-])O2)c(=O)[nH]c1=O", "strain": "IIIB", "method": "cytopathic effect / MTT", "value": "0.016 µM"}
{"smiles": "Nc1ccn([C@H]2CC[C@@H](CO)O2)c(=O)n1", "strain": "RF", "method": "syncytia", "value": "0.13 µM"}
{"smiles": "COc1ccccc1C(=O)CC1(O)C(=O)Nc2ccc(Br)cc21", "changes": "K103N", "method": "p24 / ELISA", "value": "74.7 µM"}
{"smiles": "COC(=O)[C@H](C)NP(=O)(OC[C@H]1O[C@@H](n2cc(C)c(=O)[nH]c2=O)C[C@@H]1N=[N+]=[N-])Oc1ccccc1", "strain": "IIIB", "method": "MTT / p24", "value": "0.08 µM"}
{"smiles": "Cc1ccnc2c1NC(=O)c1cccnc1N2C1CC1", "strain": "IIIB", "method": "syncytia", "value": "0.0372 µM"}
{"smiles": "CC(=O)Oc1ccc(COP(=O)(OC[C@H]2CC[C@@H](n3cnc4c(=O)[nH]cnc43)O2)OC[C@H]2O[C@@H](n3cc(C)c(=O)[nH]c3=O)C[C@@H]2N=[N+]=[N-])cc1", "strain": "IIIB", "method": "cytopathic effect / MTT", "value": "0.032 µM"}
{"smiles": "O=C(CC1(O)C(=O)Nc2ccccc21)c1ccc(F)cc1", "strain": "IIIB", "method": "cytopathic effect / syncytia", "value": "216 µM"}
{"smiles": "CCCC(=O)Oc1ccc(COP(=O)(OC[C@H]2CC[C@@H](n3cnc4c(=O)[nH]cnc43)O2)OC[C@H]2O[C@@H](n3cc(C)c(=O)[nH]c3=O)C[C@@H]2N=[N+]=[N-])cc1", "strain": "IIIB", "method": "cytopathic effect / MTT", "value": "0.032 µM"}
{"smiles": "Cc1cccc(C)c1OCC(=O)N[C@@H](Cc1ccccc1)[C@H](O)CN1CC[C@@H](Sc2ccncc2)C[C@H]1C(=O)NC(C)(C)C", "strain": "IIIB", "method": "p24", "value": "0.002 µM"}
{"smiles": "Cc1cc2c(cc1C)n1cccc1c(=O)n2CCNC(=S)Nc1ccc(Br)cn1", "strain": "IIIB", "method": "cytopathic effect / MTT", "value": ">2 µM"}
{"smiles": "[Li+]", "strain": "GUN1", "method": "antigen", "value": ">1000 µg/mL"}
{"smiles": "CC(C)[C@H](NC(=O)c1ccc2ccccc2n1)C(=O)N[C@@H](Cc1ccccc1)[C@H](O)CN1CC[C@@H](OCc2ccncc2)C[C@H]1C(=O)NC(C)(C)C", "strain": "HXB2", "method": "p24", "value": "0.0005 µM"}
{"smiles": "Cc1ccc2c(c1)n(CCNC(=S)Nc1ccc(Br)cn1)c(=O)c1cccn12", "strain": "IIIB", "method": "cytopathic effect / MTT", "value": "0.38 µM"}
{"smiles": "Nc1ncc2ncn([C@H]3CC[C@@H](CO)O3)c2n1", "strain": "ROD", "method": "syncytia", "value": "100 µM"}
{"smiles": "CCCCCCCCCCCCCCCCCCCCCCC(=O)O[C@@H]1[C@@H](C)[C@@]2(O)[C@@H](C=C(COC(C)=O)C[C@]3(O)C(=O)C(C)=C[C@@H]23)[C@@H]2C(C)(C)[C@]12O", "strain": "IIIB", "method": "p24 / ELISA", "value": "0.873 µM"}
{"smiles": "CC(C)[C@H](NC(=O)c1ccc2ccccc2n1)C(=O)N[C@@H](Cc1ccccc1)[C@H](O)CN1CC[C@@H](SCc2cccnc2)C[C@H]1C(=O)NC(C)(C)C", "strain": "WT1906-R33 (PR M46I A71V I84A)", "changes": "PR-M46I A71V I84A", "method": "p24", "value": "0.326 µM"}
{"smiles": "Cc1cn([C@H]2C[C@H](N=[N+]=[N-])[C@@H](CO)O2)c(=O)[nH]c1=O", "strain": "IIIB", "method": "p24", "value": "0.005 µM"}
{"smiles": "Oc1cc(O)c2c(c1)O[C@H](c1ccc(O)c(O)c1)[C@@H](O)C2", "strain": "IIIB", "method": "ELISA", "value": "4 µg/mL"}
{"smiles": "CCc1c(CC2CCCCC2)nc(SCC(=O)c2ccccc2)[nH]c1=O", "strain": "MN", "method": "ELISA", "value": "0.00562 µM"}
{"smiles": "O=c1c2cccn2c2cc(Cl)c(Cl)cc2n1CCNC(=S)Nc1ccc(Br)cn1", "strain": "IIIB", "method": "cytopathic effect / MTT", "value": ">2 µM"}
{"smiles": "CC(C)[C@H](NC(=O)c1ccc2ccccc2n1)C(=O)N[C@@H](Cc1ccccc1)[C@H](O)CN1CC[C@@H](OCc2ccncc2)C[C@H]1C(=O)NC(C)(C)C", "strain": "NEVR", "method": "p24 / ELISA / antigen", "value": "0.0014 µM"}
{"smiles": "O=C(O[C@@H]1Cc2c(O)cc(O)cc2O[C@@H]1c1ccc(O)c(O)c1)c1cc(O)c(O)c(O)c1", "strain": "IIIB", "method": "ELISA", "value": "1 µg/mL"}
{"smiles": "COC(=O)c1cc2c(c(OC)c1-c1ccc(N(C)C)cc1)OCO2", "strain": "A17", "changes": "K103N + Y181C", "method": "antigen", "value": "78.2 µM"}
{"smiles": "O=C(CC1(O)C(=O)Nc2ccc(Cl)cc21)c1cccc(Cl)c1", "strain": "IIIB", "method": "cytopathic effect / syncytia", "value": "43.31 µM"}
{"smiles": "Nc1ccn([C@@H]2CO[C@H](CO)S2)c(=O)n1", "strain": "RF", "changes": "RT-M184V", "method": "p24", "value": ">100 µM"}
{"smiles": "Nc1ccn([C@H]2CC[C@@H](CO)O2)c(=O)n1", "strain": "IIIB", "method": "MTT / p24", "value": "0.01 µM"}

A second listing of 4 rows from above:

smiles | strain | changes | method | value
O=c1[nH]cnc2c1ncn2[C@H]1CC[C@@H](CO)O1 | HXB2 |  | p24 | 1.8 µM
Nc1ccn([C@@H]2CO[C@H](CO)S2)c(=O)n1 | RF | RT-M184V | p24 | >100 µM
CC(=O)Oc1ccc(COP(=O)(OC[C@@H]2C[C@@H](N=[N+]=[N-])[C@H](n3cc(C)c(=O)[nH]c3=O)O2)OC[C@H]2O[C@@H](n3cc(C)c(=O)[nH]c3=O)C[C@@H]2N=[N+]=[N-])cc1 | IIIB |  | cytopathic effect / MTT | 0.003 µM
Cc1cn([C@@H]2C[C@@H](N=[N+]=[N-])[C@H](COP(=O)(O)OC[C@H]3O[C@@H](n4cc(C)c(=O)[nH]c4=O)C[C@@H]3N=[N+]=[N-])O2)c(=O)[nH]c1=O | IIIB |  | cytopathic effect / MTT | 0.016 µM